The values below are quoted from earlier work in patent publication US20190211044A1, “Adjuvant Chemicals that Prevent Drug Tolerance and Persister Formation by Bacteria” (LifeUnit Inc., priority 2018, published 2019).

This series has as its system biofilm. Conditions: known value beside the concentration used in the assay; cited from earlier work.

Only a part of the results on these compounds is given; other tests are left out.

For Sodium Nitroprusside, the DC50 was 0.05 µM.
